In paper doi:10.1101/2020.01.16.909523 (bioRxiv, 2020):

Biological target: PE5mt-PPE4mt heterodimer (His6 tag cleaved) (Mycobacterium tuberculosis)
Assay: SEC-MALS

B1: EspG3mt (natural protein)
chain: not shown
  stoichiometry N: 1
